PubChem BioAssay AID624099 – ICCB-Longwood – 2012

Test: 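Host factors E2 relies on to silence an HPV18 LCR reporter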 (primary screen)
System: human C33A cervical carcinoma cells (HPV-negative) stably expressing BPV1 E2 and an HPV18 LCR luciferase reporter
Knock-down reagent: siRNA pool against human genes, 40 nM
Time to read-out: 72 h
Read-out: 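Per-well luciferase luminescence, z-scored on each plate against the plate mean and SD with control wells left out, then averaged across three replicate plates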
Scale: mean z-score and z-score: higher = stronger reporter signal, weaker E2 silencing
Active means: 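Mean z ≥ 2 together with z ≥ 2 in two or more of the three replicates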
Here is a random part of about 21,000 deposited reagents. Over the whole deposit, 497 (2.4%) were called active. 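Higher z means weaker E2 silencing; only reporter increases were scored, and knock-downs that hurt cell survival may mask genuine repressor factors.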 Entries without a mark were called inactive.

With GLO1, how do the results read?
mean z-score: 2.97 (active); z-score, replicate A: 2.76; z-score, replicate B: 3.04; z-score, replicate C: 3.1

For CRYBG2, how do the results read?
mean z-score: -0.04; z-score, replicate A: -0.16; z-score, replicate B: -0.05; z-score, replicate C: 0.09

For GNG13, what was measured?
mean z-score: 0.72; z-score, replicate A: 0.9; z-score, replicate B: 0.84; z-score, replicate C: 0.42

What is on record for HSD11B1L?
mean z-score: 0.06; z-score, replicate A: -0.27; z-score, replicate B: -0.02; z-score, replicate C: 0.46

With ZDHHC1, how do the results read?
mean z-score: -0.37; z-score, replicate A: -0.15; z-score, replicate B: -0.44; z-score, replicate C: -0.51

Which result is listed for LINC02915?
mean z-score: 1.53; z-score, replicate A: 1.91; z-score, replicate B: 1.06; z-score, replicate C: 1.6

What is on record for GAGE4?
mean z-score: -1.38; z-score, replicate A: -1.48; z-score, replicate B: -1.47; z-score, replicate C: -1.19

For RAB6A, how do the results read?
mean z-score: -1.02; z-score, replicate A: -1.14; z-score, replicate B: -1.07; z-score, replicate C: -0.85

For TMTC1, what was measured?
mean z-score: 1.5; z-score, replicate A: 1.56; z-score, replicate B: 1.16; z-score, replicate C: 1.79

With GNAI2, what was measured?
mean z-score: -1.8; z-score, replicate A: -1.71; z-score, replicate B: -1.98; z-score, replicate C: -1.72

With ATG2B, how do the results read?
mean z-score: 0.39; z-score, replicate A: 0.34; z-score, replicate B: 0.67; z-score, replicate C: 0.16

What did the screen give for EML3?
mean z-score: 0.19; z-score, replicate A: 0.06; z-score, replicate B: 0.54; z-score, replicate C: -0.02

What is on record for TRAF5?
mean z-score: 0.83; z-score, replicate A: 0.73; z-score, replicate B: 1.07; z-score, replicate C: 0.68

How did the screen score LINC00923?
mean z-score: -0.34; z-score, replicate A: -0.36; z-score, replicate B: -0.83; z-score, replicate C: 0.16

For LOC402253 (retired record), what was measured?
mean z-score: -0.33; z-score, replicate A: 0.07; z-score, replicate B: 0.34; z-score, replicate C: -1.38

With EMC10, how do the results read?
mean z-score: -0.5; z-score, replicate A: -0.74; z-score, replicate B: -0.24; z-score, replicate C: -0.5

For NFAM1, what was measured?
mean z-score: 0.33; z-score, replicate A: 0.28; z-score, replicate B: 0.45; z-score, replicate C: 0.28

With VPS25, what was measured?
mean z-score: 0.53; z-score, replicate A: 0.47; z-score, replicate B: 0.65; z-score, replicate C: 0.47

What is on record for POLD1?
mean z-score: -0.31; z-score, replicate A: -0.13; z-score, replicate B: -0.32; z-score, replicate C: -0.47

What is on record for NDUFS2?
mean z-score: -0.39; z-score, replicate A: -0.71; z-score, replicate B: 0.04; z-score, replicate C: -0.5

Which result is listed for MXD1?
mean z-score: -0.14; z-score, replicate A: -0.17; z-score, replicate B: -0.19; z-score, replicate C: -0.04

What is on record for CCDC66?
mean z-score: 0.46; z-score, replicate A: 0.49; z-score, replicate B: 0.48; z-score, replicate C: 0.4

For LOC401599 (retired record), what does the deposit list?
mean z-score: 0.32; z-score, replicate A: 0.71; z-score, replicate B: -0.08; z-score, replicate C: 0.33

With GCM1, how do the results read?
mean z-score: -1.61; z-score, replicate A: -1.61; z-score, replicate B: -1.53; z-score, replicate C: -1.68

How did the screen score PRSS55?
mean z-score: 0.08; z-score, replicate A: 0.08; z-score, replicate B: 0.34; z-score, replicate C: -0.19

How did the screen score CSNK1A1L?
mean z-score: 0.15; z-score, replicate A: 0.05; z-score, replicate B: 0.15; z-score, replicate C: 0.24

With SPRED3, how do the results read?
mean z-score: -2.23; z-score, replicate A: -1.7; z-score, replicate B: -2.4; z-score, replicate C: -2.6
